The subject of the assay is murine model of lethal endotoxemia. The assay is described as follows: Survival in murine model of lethal endotoxemia. It counts as in vivo, mice. Conditions: 14 days after endotoxin; 0.4 mg/kg i.p. one hour before endotoxin; vehicle none survived.

Turning to `C/C=C1\[C@H]2C=C(C)C[C@]1(N)c1ccc(=O)[nH]c1C2`, the mice survived result was “about 75%”.

These data come from patent publication US8003632B2, “Cholinesterase inhibitors for treating inflammation” (priority 2004, dated 2011).
